Test results reported in article PMC3744643.

Biological target: T1, His-OpaR (Vibrio parahaemolyticus RIMD 2210633) (UniProt Q79YV4)
T1 sequence: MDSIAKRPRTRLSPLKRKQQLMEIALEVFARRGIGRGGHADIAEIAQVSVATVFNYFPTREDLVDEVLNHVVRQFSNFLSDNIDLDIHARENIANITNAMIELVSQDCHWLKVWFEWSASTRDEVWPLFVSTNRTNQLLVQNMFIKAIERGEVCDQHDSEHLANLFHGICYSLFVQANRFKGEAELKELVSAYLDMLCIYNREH
Experiment: EMSA
Details: poly(dI-dC), 1 mM MgCl2; 10 mM Tris-HCl pH 7.5, 50 mM NaCl, 1 mM MgCl2, 0.5 mM EDTA, 0.5 mM DTT, 0.05 mg/ml poly(dI-dC), room temperature, 30 min; recombinant protein; residues 1-204; protein details: 6xHis (pET28a, BamHI/HindIII); label: 5' 32P; probe letters rebuilt from the primers and the genome

## TATTACCTTACTTGCCTCTCGGAAAAGAAGTCCTAACGGAAATAACTAAGTTAAAACTCAACAAAGTATCTAACCGTATCCGAAAACATTATTCGGCAGGGTTGTATTTTGATGAACAACTAATTAATGACATTGTAGACAATAGTAATGAGTCAGGAAGTGGTGCTCGTGTAGTTCAAACCACCATTGAAAATAATTTACTTCCTAAAATTTCTCATGAAATATTGAATGCAATTCTTAATGGTAAGACGTTCGATGAAATTAATGTTAGAGGTTCAATTAAAGAACTAGAAGTCTCACTTATTTAACAAGTTTAACTCTGTAAATAATAATTGAGAGTTGCTTCATAATAACTATTATTAGTTATAAATATCGCTTAATTTAAATCTAATTTAAAGATATAAAGGAGCGTATTTAAAATGAAGTTTTTGATACATCAATCATTAATTATCATTATTCAGATAATTTAATTAATACGAAATATGTCAATTAATAATGCTCTAGGAGATTAGCATGCAGTCTAATACGTATCTTAAATACGCAGATATTAAAGGTGAAGCGACAGCGGAACAATATAAGGATTTAATTACACTACTATCTGTAGATTGGAGTGTTGGTCGTGAAATTTCTTCTTACACGGGTACAGCAATGGACCGTGAAGCA (double strand) [VPA1027 (hcp2) promoter EMSA probe]
  binding result: binds
